A mixed list of measured activities; the numbers were collected in NIAID ChemDB.

All rows: enzyme or target tests

An empty or dashed field is not shown. Fold resistance: result on the changed form divided by that on wild type. ICn: concentration for n% inhibition. Inhibition is in % at the dose shown (toxicity tests: loss of growth or viability). Rows are shuffled and stem from different studies.

compound | setting | dose | read-out | target | organism | mutations | method | strain or isolate | result
Cc1cc(SC2=C(O)CC(CCc3ccc(O)cc3)(C3CCCCC3)OC2=O)c(C(C)(C)C)cc1CO | - | - | fold resistance | Protease | HIV-1 | PR-V82F | HPLC / absorbance | - | 26
Nc1ccn([C@H]2CC[C@@H](COP(=O)(O)OP(=O)(O)OP(=O)(O)O)O2)c(=O)n1 | - | - | Ki | Reverse transcriptase | HIV-1 | RT-T215Y | nucleotide incorporation / radiometric | - | 0.62 µM
COOCC1=C(C)N=C2S/C(=N\Nc3cc(C(=O)O)ccc3C)C(=O)N2C1c1ccccc1 | - | - | IC50 | RNase H | HIV-1 | - | RNase H / fluorescence | Clinical isolate | 44.86 µM
O=C(/C=C/c1ccc(O)c(O)c1)O[C@@H]1CC(O)(C(=O)O)C[C@@H](OC(=O)/C=C/c2ccc(O)c(O)c2)C1O | - | - | IC50 | RNase H | HIV-1 | - | - | - | >>97 µM
COc1ccccc1-c1noc(=O)n1-c1cccc(C(F)(F)F)c1 | - | - | IC50 | p17 | HIV-1 | - | PCR | - | ~1 µM
C=CCOC(=O)C1=C(C)NC(N)=[N+]2[C@H](C[C@@H](O)CCCCCCOCc3ccccc3)CC[C@H]12 | - | 5 µM | inhibition | Nef | HIV-1 | - | ELISA | NL4-3 | 101%
O=C(/C=C/c1ccc(O)c(O)c1)O[C@H]1[C@H](O)[C@@H](O)[C@H](OCCc2ccc(O)c(O)c2)O[C@@H]1CO | - | 50 µg/mL | inhibition | gp41 | HIV-1 | - | ELISA | - | 0%
COC(=O)C(Cc1ccccc1)NC(=O)[C@@H](NC(=O)[C@@H](C[C@H](O)[C@H](CC1CCCCC1)NC(=O)[C@@H](NC(=O)[C@H](Cc1ccccc1)CS(=O)(=O)C(C)(C)C)C(C)C)C(C)C)C(C)C | - | - | IC50 | Reverse transcriptase | HIV-2 | RT-S102L E219D | nucleotide incorporation | EHO | >1553 µM
O=C(O[C@@H]1Cc2c(O)cc(O)cc2O[C@@H]1c1cc(O)c(O)c(O)c1)c1cc(O)c(O)c(O)c1 | - | 100 µM | inhibition | gp120 | HIV-1 | - | fluorescence | - | 50%
Cc1cccc(C)c1OCC(=O)N[C@@H](Cc1ccccc1)[C@H](OC(=O)CCCC(=O)NCCC(=O)OC[C@H]1O[C@@H](n2cc(C)c(=O)[nH]c2=O)C[C@@H]1N=[N+]=[N-])C(=O)N1CSC(C)(C)[C@H]1C(=O)NC(C)(C)C | - | - | IC50 | Protease + Reverse transcriptase | HIV-1 | - | - | - | >5 µM
COc1cc2c(cc1OC)[C@H](c1cc(OC)c(OC)c(OC)c1)[C@@H](C)[C@@H](C)C2 | - | - | IC50 | RNase H | HIV-1 | - | RNase H | - | >10 µM
CNC(=O)[C@@H](NC(=O)[C@H](OCc1ccccc1)[C@H](O)[C@@H](O)[C@@H](OCc1ccccc1)C(=O)N[C@H]1c2ccccc2C[C@H]1O)C(C)C | - | - | Ki | Protease | HIV | PR-G48V | - | - | 0.0003 µM
Cc1cn([C@@H]2O[C@H](CO[Si](C)(C)C(C)(C)C)C3(OS(=O)(=O)C=C3N)[C@H]2O[Si](C)(C)C(C)(C)C)c(=O)n(C)c1=O | - | - | fold resistance | Reverse transcriptase | HIV | RT-N137E | nucleotide incorporation / radiometric | - | 1.1
Cc1cccc(C)c1OCC(=O)N[C@H](CCN1CC[C@@H](SCc2cccnc2)C[C@H]1C(=O)NC(C)(C)C)Cc1ccccc1 | - | - | IC50 | Protease | HIV-2 | - | - | - | ≤0.0042 µM
NC[C@@H]1O[C@H](O[C@H]2[C@@H](O)[C@H](O[C@@H]3[C@@H](O)[C@H](N)C[C@H](N)[C@H]3O[C@H]3O[C@H](CN)[C@@H](O)[C@H](O)[C@H]3N)O[C@@H]2CO)[C@H](N)[C@@H](O)[C@@H]1O | - | - | IC50 | Tat:TAR/LTR | HIV-1 | - | RNase H / fluorescence | - | 1.26 µM
CO[P@](=O)(c1cc(C)cc(/C=C/C#N)c1)c1c(C(N)=O)[nH]c2ccc(Cl)cc12 | - | - | IC50 | Reverse transcriptase | HIV | V108I | - | - | 0.83 µM
CC(C)[C@H](NC(=O)c1ccc2ccccc2n1)C(=O)N[C@@H](Cc1ccccc1)[C@H](O)CN1CC[C@@H](SCc2cccnc2)C[C@H]1C(=O)NC(C)(C)C | - | - | Ki | Protease | HIV | PR-V32I M46I A71V I84A | fluorescence | - | 0.02017 µM
Nc1ccn([C@@H]2CS[C@H](COP(=O)(O)OP(=O)(O)OP(=O)(O)O)O2)c(=O)n1 | - | - | Ki | Reverse transcriptase | HIV-1 | RT-M184V | nucleotide incorporation / radiometric | - | 93 µM
C=CCOC(=O)C1=C(C)NC2=[N+]3[C@@H](CC[C@@H]13)C[C@@H](CCCCC[C@@H](C)OCc1ccccc1)N2 | - | 5 µM | inhibition | Nef | HIV-1 | - | ELISA | NL4-3 | 85.4%
Cc1c(Sc2ccccc2)n(COCCO)c(=O)[nH]c1=O | - | - | fold resistance | Reverse transcriptase | HIV-1 | RT-K103N | - | - | >10
O=C(O)c1cc2cc(O)c(O)cc2[nH]1 | - | - | IC50 | RNase H + Reverse transcriptase | HIV-1 | - | RNase H / fluorescence | - | 29 µM
CC(=O)c1ccc(C)cc1NC(C(N)=O)c1c(Cl)cccc1Cl | - | - | IC50 | Reverse transcriptase | HIV-2 | RT-S102L | nucleotide incorporation | EHO | >1425 µM
CCC(Cc1ccccc1)c1cc(O)c(C(CC)c2ccccc2)c(=O)o1 | - | - | Ki | Protease | HIV-2 | - | - | - | 0.032 µM
CC(C)=CCOc1cc(NC(=S)c2ccoc2C)ccc1Cl | - | - | IC50 | Reverse transcriptase | HIV | RT-N137S | nucleotide incorporation / radiometric | - | 0.05 µM
Cc1cn([C@@H]2O[C@H](CO[Si](C)(C)C(C)(C)C)C3(OS(=O)(=O)C=C3N)[C@H]2O[Si](C)(C)C(C)(C)C)c(=O)n(C)c1=O | - | - | fold resistance | Reverse transcriptase | HIV | RT-V106A | nucleotide incorporation | - | >183
CCCCCCCCC[C@@H]1C[C@@H]2CC[C@H]3C(C(=O)OC(C)(C)C)=C(C)NC(=[N+]23)N1 | - | 5 µM | inhibition | Nef | HIV-1 | - | ELISA | NL4-3 | 96.8%
Cc1cccc(C)c1OCC(=O)N[C@H](CCN1CC[C@@H](OCc2cccnc2)C[C@H]1C(=O)NC(C)(C)C)Cc1ccccc1 | - | - | IC50 | Protease | HIV-2 | - | - | - | 0.013 µM
CCOCn1c(Cc2ccccc2)c(C(C)C)c(=O)[nH]c1=O | - | - | IC50 | Reverse transcriptase | HIV-2 | RT-S102L E219D | nucleotide incorporation | EHO | >1656 µM
CC[C@H]1C=CCC[C@@]2(C[C@@H]3CC[C@@H]4[C@H](C(=O)OC/C=C/c5ccccc5)[C@]5(CCC[C@@H](C)O5)NC(=[N+]34)N2)O1 | - | 5 µM | inhibition | Nef | HIV-1 | - | ELISA | NL4-3 | 81.2%
Cc1cc(SC2=C(O)C[C@@](CCc3ccc(O)cc3)(C(C)C)OC2=O)c(C(C)(C)C)cc1N | - | 10 µM | inhibition | Protease | HIV | - | HPLC | - | 5%
Cc1cn([C@H]2C=C[C@@H](COP(=O)(O)OP(=O)(O)OP(=O)(O)O)O2)c(=O)[nH]c1=O | - | - | IC50 | Reverse transcriptase | HIV | RT-N137E | nucleotide incorporation / radiometric | - | 0.04 µM
Cc1cccc(C)c1OCC(=O)N[C@@H](Cc1ccccc1)[C@H](OC(=O)CCC(=O)NCCC(=O)OC[C@H]1O[C@@H](n2cc(C)c(=O)[nH]c2=O)C[C@@H]1N=[N+]=[N-])C(=O)N1CSC(C)(C)[C@H]1C(=O)NC(C)(C)C | - | - | IC50 | Protease + Reverse transcriptase | HIV-1 | - | - | - | >5 µM
O=C(O)C1(O)C[C@@H](O)C(O)[C@H](O)C1 | - | - | IC50 | RNase H | HIV-1 | - | RNase H | - | >260 µM
Cc1cccc(C)c1OCC(=O)N[C@@H](Cc1ccccc1)[C@H](O)CN1CC[C@@H](Sc2ccncc2)C[C@H]1C(=O)NC(C)(C)C | - | - | Ki | Protease | HIV-2 | - | fluorescence | - | 0.000024 µM
C[C@@H]1O[C@@H](O[C@@H]2[C@@H](O)[C@H](OCCc3ccc(O)c(O)c3)O[C@H](CO)[C@H]2OC(=O)/C=C/c2ccc(O)c(O)c2)[C@H](O)[C@H](O)[C@H]1O | - | - | IC50 | gp41 | HIV-1 | - | ELISA | - | >50 µg/mL
CC(C)(C)OC(=O)NCCC(=O)Nc1cccc(C(c2c(O)c3c(oc2=O)CCCCCC3)C2CC2)c1 | - | - | Ki | Protease | HIV-2 | - | - | - | 0.016 µM
COC(=O)c1ccc(CN2[C@H](COc3ccccc3)[C@H](O)[C@@H](O)[C@@H](COc3ccccc3)N(Cc3ccc(C(=O)OC)cc3)S2(=O)=O)cc1 | - | - | fold resistance | Protease | HIV-1 | PR-I84V | - | - | 17.9
CC[C@H]1C=CCC[C@@]2(C[C@@H]3CC[C@@H]4[C@H](C(=O)OCCCCCCCCCCCCCCCC(=O)N(CCC[NH3+])CCCC[NH3+])[C@]5(CCC[C@@H](C)O5)NC(=[N+]34)N2)O1 | - | 5 µM | inhibition | Nef | HIV-1 | - | ELISA | NL4-3 | 81%
O=C(NCCc1ccc(O)c(O)c1)c1cc2cc(O)c(O)cc2[nH]1 | - | - | IC50 | RNase H + Reverse transcriptase | HIV-1 | Reverse transcriptase L503F | RNase H / fluorescence | - | 65 µM
Cc1cc(S(N)(=O)=O)ccc1NC(=O)COc1ccc(Cl)cc1C(=O)c1cc(Cl)cc(C#N)c1 | - | - | fold resistance | Reverse transcriptase | HIV-1 | RT-V108I Y181C | fluorescence | - | 2.66
CC(C)C[C@H](NC(=O)[C@H](C)NC(=O)C[C@H](O)[C@H](CC(C)C)NC(=O)[C@@H](NC(=O)[C@@H](NC(=O)C(C)O)C(C)C)C(C)C)[C@@H](O)CC(=O)O | pH 4.7 | - | IC50 | Protease | HIV-2 | - | HPLC | - | 0.75 µM
CC(C)Nc1cccnc1N1CCN(C(=O)c2cc3ccccc3[nH]2)CC1 | - | - | IC50 | Reverse transcriptase | HIV | RT-G190E | nucleotide incorporation | - | 440 µM
Cc1cccc(C)c1OCC(=O)N[C@@H](Cc1ccccc1)[C@H](O)CN1CC[C@@H](Sc2ccncc2)C[C@H]1C(=O)NC(C)(C)C | - | - | IC50 | Protease | HIV-2 | - | - | - | ≤0.0023 µM
Nc1nc2c(ncn2[C@H]2CC[C@@H](COP(=O)(O)OP(=O)(O)OP(=O)(O)O)O2)c(=O)[nH]1 | - | - | fold resistance | Reverse transcriptase | HIV | RT-Y181I | nucleotide incorporation | - | 0.75
Cc1cc(SC2=C(O)C[C@@](CCc3ccc(O)cc3)(C(C)C)OC2=O)c(C(C)(C)C)cc1CO | - | - | fold resistance | Protease | HIV-1 | PR-V82A | HPLC / absorbance | - | 4.3
NC(=O)c1c(N)sc2c1CCCCC2 | - | - | IC50 | RNase H | HIV-1 | - | fluorescence | - | 4 µM
Nc1ncnc2c1ncn2[C@H]1CC[C@@H](COP(=O)(O)OP(=O)(O)OP(=O)(O)O)O1 | - | - | Ki | Reverse transcriptase | HIV-1 | RT-T215Y | nucleotide incorporation / radiometric | - | 0.52 µM
O=C1N(Cc2ccc(CO)cc2)[C@H](COc2ccccc2)[C@H](O)[C@@H](O)[C@@H](COc2ccccc2)N1Cc1ccc(CO)cc1 | - | - | fold resistance | Protease | HIV | PR-V82A | fluorescence | - | 1.04
Cc1cc(SC2=C(O)C[C@@](CCc3ccc(O)cc3)(C(C)C)OC2=O)c(C(C)(C)C)cc1N | - | - | fold resistance | Protease | HIV | PR-V32F/I84V | - | - | 24
Cc1cc(SC2=C(O)C[C@@](CCc3ccc(N)cc3)(C(C)C)OC2=O)c(C(C)(C)C)cc1CO | - | - | fold resistance | Protease | HIV-1 | PR-V32I I84V | HPLC / absorbance | - | 14
O=c1ccc2cc(O[C@@H]3O[C@H](CO)[C@@H](O)[C@H](O)[C@H]3O)c(O)cc2o1 | - | - | IC50 | gp41 | HIV-1 | - | ELISA | - | >50 µg/mL
O=c1c2ccccc2[se]n1-c1ccccn1 | - | - | IC50 | Capsid | HIV-1 | - | FRET / fluorescence | - | 0.1359 µM
O=c1ccc2cc(O)c(O)cc2o1 | - | - | IC50 | gp41 | HIV-1 | - | ELISA | - | >50 µg/mL
COc1ccc2c(c1)N(C(=O)OC(C)C)[C@@H](CSC)C(=S)N2 | - | - | fold resistance | Reverse transcriptase | HIV | RT-D67N K70R T215F K219Q L100I | RT activity | - | 2.17

Repeating the final 7 entries:

compound	setting	dose	read-out	target	organism	mutations	method	strain or isolate	result
O=C1N(Cc2ccc(CO)cc2)[C@H](COc2ccccc2)[C@H](O)[C@@H](O)[C@@H](COc2ccccc2)N1Cc1ccc(CO)cc1	-	-	fold resistance	Protease	HIV	PR-V82A	fluorescence	-	1.04
Cc1cc(SC2=C(O)C[C@@](CCc3ccc(O)cc3)(C(C)C)OC2=O)c(C(C)(C)C)cc1N	-	-	fold resistance	Protease	HIV	PR-V32F/I84V	-	-	24
Cc1cc(SC2=C(O)C[C@@](CCc3ccc(N)cc3)(C(C)C)OC2=O)c(C(C)(C)C)cc1CO	-	-	fold resistance	Protease	HIV-1	PR-V32I I84V	HPLC / absorbance	-	14
O=c1ccc2cc(O[C@@H]3O[C@H](CO)[C@@H](O)[C@H](O)[C@H]3O)c(O)cc2o1	-	-	IC50	gp41	HIV-1	-	ELISA	-	>50 µg/mL
O=c1c2ccccc2[se]n1-c1ccccn1	-	-	IC50	Capsid	HIV-1	-	FRET / fluorescence	-	0.1359 µM
O=c1ccc2cc(O)c(O)cc2o1	-	-	IC50	gp41	HIV-1	-	ELISA	-	>50 µg/mL
COc1ccc2c(c1)N(C(=O)OC(C)C)[C@@H](CSC)C(=S)N2	-	-	fold resistance	Reverse transcriptase	HIV	RT-D67N K70R T215F K219Q L100I	RT activity	-	2.17